A mixed list of measured activities; the numbers were collected in NIAID ChemDB.

All rows: growth or infection tests; agent: HIV-1

Neighbouring rows are from separate reports.

O=C(N[C@H]1c2ccccc2C[C@H]1O)[C@H](OCc1ccccc1F)[C@H](O)[C@@H](O)[C@@H](OCc1ccccc1F)C(=O)N[C@H]1c2ccccc2C[C@H]1O ; cell line: MT-4 ; read by: cytopathic effect / XTT ; endpoint: EC50 ; value: 0.04 µM
Cc1cn([C@H]2C[C@H](N=[N+]=[N-])[C@@H](CO)O2)c(=O)[nH]c1=O ; cell line: MT-4 ; read by: cytopathic effect / MTT ; strain or isolate: HE ; endpoint: EC50 ; value: 0.0004 µM
O=[N+]([O-])c1ccccc1S(=O)(=O)c1ccccc1 ; cell line: C8166 ; strain or isolate: RF ; endpoint: EC50 ; value: 3.2 µM
CCCCN1C(=O)C(CC(C)C)NC(=O)C12CCN(CCCCCCc1ccccc1)CC2 ; cell line: PBMC ; read by: p24 ; strain or isolate: NL4-3 ; endpoint: EC50 ; value: >1 µM
CC(C)(c1ncc(-c2ccc(Cl)cc2)o1)N1CCN(C[C@@H](O)C[C@@H](Cc2nnco2)C(=O)N[C@H]2c3ccccc3OC[C@H]2O)[C@H](C(=O)NCC(F)(F)F)C1 ; cell line: MT-4 ; read by: p24 ; strain or isolate: V-18 Clinical isolate ; changes: PR-L10I M36I N37D M46I R57K L63P A71V G73S I84V L90M I93L ; endpoint: EC95 ; value: 0.063 µM
Cc1c(O)cccc1C(=O)N[C@@H](CSc1ccccc1)[C@H](O)CN1C[C@H]2CCCC[C@H]2C[C@H]1C(=O)NC(C)(C)C ; cell line: PBMC ; read by: p24 ; strain or isolate: IIIB ; endpoint: EC90 ; value: 0.0272 µM
CCCCN1C(=O)C(CC2CCCCC2)NC(=O)C12CCN(Cc1ccc3c(c1)OCCO3)CC2 ; cell line: PBMC ; read by: p24 ; strain or isolate: MM ; changes: MDR ; endpoint: EC50 ; value: 0.05 µM
CC1(C)C2=CC(=O)C(O)(c3ccccc3)C(=O)N2c2ccc(Cl)cc21 ; read by: cytopathic effect / MTT ; strain or isolate: RF ; endpoint: EC50 ; value: 0.59 µM
Nc1ccn([C@@H]2CO[C@H](CO)S2)c(=O)n1 ; cell line: C8166 ; read by: p24 ; strain or isolate: RF ; changes: RT-M184I ; endpoint: EC50 ; value: 28 µM
COc1cncc(-c2cnc(C(C)(C)N3CCN(C[C@@H](O)C[C@@H](Cc4nnc(C)o4)C(=O)N[C@H]4c5ccccc5OC[C@H]4O)[C@H](C(=O)NCC(F)(F)F)C3)o2)c1 ; cell line: MT-4 ; read by: p24 ; strain or isolate: V-18 Clinical isolate ; changes: PR-L10I M36I N37D M46I R57K L63P A71V G73S I84V L90M I93L ; endpoint: EC95 ; value: >1 µM
Cc1cn([C@H]2C[C@H](N=[N+]=[N-])[C@@H](CO)O2)c(=O)[nH]c1=O ; cell line: TZM-bl ; read by: p24 / ELISA ; strain or isolate: TRO.11 ; endpoint: EC50 ; value: 0.06092 µM
Cc1cn([C@H]2C=C[C@@H](CO)O2)c(=O)[nH]c1=O ; cell line: PBMC ; read by: p24 ; strain or isolate: IIIB Subtype B ; endpoint: EC50 ; value: 0.056 µM
Nc1ccn([C@H]2CC[C@@H](CO)O2)c(=O)n1 ; cell line: MT-4 ; read by: cytopathic effect / MTT ; strain or isolate: IIIB ; endpoint: EC50 ; value: 0.137 µM
O=c1[nH]cnc2c1ncn2[C@H]1CC[C@@H](CO)O1 ; cell line: PBMC ; read by: p24 ; strain or isolate: TM ; changes: MDR ; endpoint: EC50 ; value: 2.5 µM
CC(C)(c1ncc(-c2ccc(F)cc2)o1)N1CCN(C[C@@H](O)C[C@@H](Cc2nnc(-c3ccccc3)o2)C(=O)N[C@H]2c3ccccc3OC[C@H]2O)[C@H](C(=O)NCC(F)(F)F)C1 ; cell line: MT-4 ; read by: p24 ; strain or isolate: K-60 Clinical isolate ; changes: PR-L10I M46I I54V Q58E L63P I64V V77I V82F I84V L90M I93L ; endpoint: EC50 ; value: <0.008 µM
Nc1ccn([C@H]2CC[C@@H](CO)O2)c(=O)n1 ; cell line: MT-2 ; read by: p24 ; changes: RT-delta67 K103N ; endpoint: EC50 ; value: 0.199 µM
Cc1ccccc1CCN1CCCC(C(C(N)=O)(c2ccccc2)c2ccccc2)C1 ; cell line: MT-2 ; read by: cytopathic effect / XTT ; strain or isolate: NL4-3 ; endpoint: EC50 ; value: 1.4 µM
CC(C)(c1ncc(-c2ccc(Cl)cc2)o1)N1CCN(C[C@@H](O)C[C@@H](Cc2nnc(-c3ccccc3)o2)C(=O)N[C@H]2c3ccccc3OC[C@H]2O)[C@H](C(=O)NCC(F)(F)F)C1 ; cell line: MT-4 ; read by: p24 ; strain or isolate: K-60 Clinical isolate ; changes: PR-L10I M46I I54V Q58E L63P I64V V77I V82F I84V L90M I93L ; endpoint: EC50 ; value: <0.008 µM
NC(=O)C(c1ccccc1)(c1ccccc1)[C@H]1CCCN(CCc2ccc3c(c2)CCO3)C1 ; cell line: CEM + CEM-SS ; read by: cytopathic effect / XTT ; strain or isolate: NL4-3 ; endpoint: EC50 ; value: 1.1 µM
C=C(C)[C@]12C[C@@H](COC(=O)c3ccccc3)[C@@]34O[C@]5(O[C@@H]1[C@@H]3[C@@H]1O[C@]1(CO)[C@@H](O)[C@@]1(O)[C@H]4[C@H]([C@H](C)[C@@H]1OC(=O)c1ccccc1)[C@H](C)CCCCCC[C@H]5O)O2 ; cell line: PBMC ; read by: p24 / ELISA ; strain or isolate: JR-CSF ; endpoint: EC50 ; value: 0.0000205 µM
Fc1cccc(F)c1C1SCc2nc3ccccc3n21 ; cell line: CEM + CEM-SS ; read by: cytopathic effect / XTT ; strain or isolate: ED ; endpoint: EC50 ; value: 0.98 µM
Cc1cn([C@H]2C=C[C@@H](CO)O2)c(=O)[nH]c1=O ; cell line: MT-4 ; read by: cytopathic effect ; strain or isolate: IIIB ; endpoint: EC50 ; value: 0.25 µM
O=C(O)c1cc(O)cc(O)c1N=Nc1ccc(/C=C/c2ccc(N=Nc3c(O)cc(O)cc3C(=O)O)cc2S(=O)(=O)O)c(S(=O)(=O)O)c1 ; cell line: PBMC ; read by: p24 ; strain or isolate: CLADE C ; endpoint: EC50 ; value: 0.5 µg/mL
Cc1cn([C@H]2C=C[C@@H](CO)O2)c(=O)[nH]c1=O ; cell line: MT-2 ; read by: XTT ; strain or isolate: IIIB ; endpoint: EC50 ; value: 4.8 µM
Cc1cn([C@H]2C[C@H](N=[N+]=[N-])[C@@H](CO)O2)c(=O)[nH]c1=O ; cell line: PBMC ; read by: p24 ; strain or isolate: IIIB ; endpoint: EC90 ; value: 0.04 µM
CCCCC1C(=O)C=C2N(C1=O)c1ccccc1C2(C)C ; cell line: MT-4 ; read by: cytopathic effect / MTT ; strain or isolate: RF ; endpoint: EC50 ; value: >100 µM
C=C(C)OC(=O)N1c2cc(Cl)ccc2NC(=S)C1(C)C ; cell line: CEM ; read by: p24 ; strain or isolate: IIIB ; changes: RT-M184I ; endpoint: EC50 ; value: 0.001 µg/mL
COc1ccc(CN[C@@H](C(=O)N[C@H]2c3ccccc3C[C@H]2O)[C@H](O)[C@H](Cc2ccccc2)NC(=O)[C@@H](NC(=O)OCc2ccccc2)C(C)(C)C)cc1 ; cell line: U-937 ; read by: p24 ; strain or isolate: IIIB ; endpoint: EC50 ; value: 0.079 µM
O=C1N(Cc2ccc(CO)cc2)[C@H](Cc2ccccc2)[C@H](O)[C@@H](O)[C@@H](Cc2ccccc2)N1Cc1ccc(CO)cc1 ; cell line: PBMC ; read by: p24 ; strain or isolate: RF ; endpoint: EC90 ; value: 0.11 µM
Cc1cn([C@H]2C[C@H](N=[N+]=[N-])[C@@H](CO)O2)c(=O)[nH]c1=O ; cell line: MT-4 ; read by: cytopathic effect ; strain or isolate: LZ-05.95 ; endpoint: EC50 ; value: 0.03 µM
CNC(=O)[C@@H](NC(=O)[C@H](OCc1ccc(F)cc1F)[C@H](O)[C@@H](O)[C@@H](OCc1ccc(F)cc1F)C(=O)N[C@H](C(=O)NC)C(C)C)C(C)C ; cell line: MT-4 ; read by: cytopathic effect / XTT ; endpoint: EC50 ; value: 0.9 µM
CC(=O)N1CCC(C(=O)N(CCCN2CCC(Cc3ccc(C(N)=O)cc3)CC2)c2ccc(C)c(Cl)c2)CC1 ; cell line: PBMC ; read by: p24 ; strain or isolate: IIIB X4 ; endpoint: EC50 ; value: >10 µM
CC(C)=CCN1Cc2cc(Cl)cc3[nH]c(=S)n(c23)C[C@@H]1C ; cell line: CEM ; read by: p24 ; strain or isolate: IIIB ; changes: RT-V106A ; endpoint: EC50 ; value: 0.5 µg/mL
Cc1cn([C@H]2CC(N=[N+]=[N-])[C@@H](OCP(=O)(O)O)O2)c(=O)[nH]c1=O ; cell line: MT-2 ; read by: XTT ; strain or isolate: IIIB ; endpoint: EC50 ; value: >200 µM
c1cc(CN2CCCNCCNCCCNCC2)ccc1CN1CCCNCCNCCCNCC1 ; cell line: PBMC ; read by: p24 ; strain or isolate: JSL ; changes: MDR ; endpoint: EC50 ; value: >1 µM
C=CCN1Cc2cccc3[nH]c(=O)n(c23)C[C@H]1C ; cell line: MT-4 ; read by: cytopathic effect / MTT ; strain or isolate: IIIB ; endpoint: EC50 ; value: >500 µM
O=C(N[C@H]1c2ccccc2C[C@H]1O)[C@H](OCc1ccc(F)cc1F)[C@H](O)[C@@H](O)[C@@H](OCc1ccc(F)cc1F)C(=O)N[C@H]1c2ccccc2C[C@H]1O ; cell line: MT-4 ; read by: cytopathic effect / XTT ; endpoint: EC50 ; value: 0.1 µM
Cc1ccc(OS(=O)(=O)c2ccccc2[N+](=O)[O-])cc1 ; cell line: CEM + CEM-SS ; read by: cytopathic effect / XTT ; strain or isolate: RF ; endpoint: EC50 ; value: 4.3 µM
Cc1ccnc2c1NC(=O)c1cccnc1N2C1CC1 ; cell line: MT-2 ; read by: p24 ; changes: RT-K103N ; endpoint: EC50 ; value: 2.436 µM
Cc1cn([C@@H]2O[C@H](CO[Si](C)(C)C(C)(C)C)C3(OS(=O)(=O)C=C3N)[C@H]2O[Si](C)(C)C(C)(C)C)c(=O)n(C)c1=O ; cell line: CEM ; read by: p24 ; strain or isolate: IIIB ; changes: RT-L100I ; endpoint: EC50 ; value: 0.042 µg/mL
Nc1ccn([C@H]2CC[C@@H](CO)O2)c(=O)n1 ; cell line: MT-4 ; read by: cytopathic effect ; strain or isolate: IIIB ; endpoint: EC50 ; value: 0.854 µM
O=C(N[C@H]1c2ccccc2OC[C@H]1O)[C@H](Cc1nnc(-c2ccccc2)o1)C[C@H](O)CN1CCN(Cc2ccc(-c3ccc(Cl)cc3)o2)C[C@H]1C(=O)NCC(F)(F)F ; cell line: MT-4 ; read by: p24 ; strain or isolate: K-60 Clinical isolate ; changes: PR-L10I M46I I54V Q58E L63P I64V V77I V82F I84V L90M I93L ; endpoint: EC50 ; value: <0.008 µM
CC(C)(C)NC(=O)[C@@H]1C[C@@H]2CCCC[C@@H]2CN1C[C@@H](O)[C@H](Cc1ccccc1)NC(=O)[C@H](CC(N)=O)NC(=O)c1ccc2ccccc2n1 ; cell line: PBMC ; read by: p24 ; strain or isolate: MM ; changes: MDR ; endpoint: EC50 ; value: 0.37 µM
COc1ccc2c(c1)N(C(=O)OC(C)C)[C@@H](CSC)C(=S)N2 ; cell line: CEM ; read by: p24 ; strain or isolate: RTMC (RT D67N K70R T215F K219Q) ; changes: RT-D67N K70R T215F K219Q ; endpoint: EC50 ; value: 0.002 µg/mL
Cc1nnc(C[C@H](C[C@H](O)CN2CCN(C(C)(C)c3ncc(-c4ccc(F)cc4)o3)C[C@H]2C(=O)NCC(F)(F)F)C(=O)N[C@H]2c3ccccc3OC[C@H]2O)o1 ; cell line: MT-4 ; read by: p24 ; strain or isolate: K-60 Clinical isolate ; changes: PR-L10I M46I I54V Q58E L63P I64V V77I V82F I84V L90M I93L ; endpoint: EC95 ; value: 0.125 µM
Cc1cn([C@H]2C=C[C@@H](OCP(=O)(O)O)O2)c(=O)[nH]c1=O ; cell line: MT-2 ; read by: cytopathic effect / XTT ; strain or isolate: IIIB ; endpoint: EC50 ; value: 26 µM
CCCc1nnc(C[C@H](C[C@H](O)CN2CCN(C(C)(C)c3ncc(-c4ccc(F)cc4)o3)C[C@H]2C(=O)NCC(F)(F)F)C(=O)N[C@H]2c3ccccc3OC[C@H]2O)o1 ; cell line: MT-4 ; read by: p24 ; strain or isolate: Q-60 Clinical isolate ; changes: PR-L10I N37S R41K M46I I54V I62V L63P A71V V77I V82A L90M I93L ; endpoint: EC95 ; value: ≤0.008 µM
Cc1ccnc2c1NC(=O)c1cccnc1N2C1CC1 ; cell line: C8166 ; read by: p24 ; strain or isolate: RF ; endpoint: EC50 ; value: 0.009 µM
Cc1cn([C@@H]2CC[C@H](CO)O2)c(=O)[nH]c1=O ; cell line: MT-2 ; read by: XTT ; strain or isolate: IIIB ; endpoint: EC50 ; value: >200 µM
CNC(=O)[C@@H](NC(=O)[C@H](OCc1ccccc1F)[C@H](O)[C@@H](O)[C@@H](OCc1ccccc1F)C(=O)N[C@H](C(=O)NC)C(C)C)C(C)C ; cell line: MT-4 ; read by: cytopathic effect / XTT ; endpoint: EC50 ; value: 0.8 µM

A second listing of 6 rows from above:

O=c1[nH]cnc2c1ncn2[C@H]1CC[C@@H](CO)O1 ; cell line: PBMC ; read by: p24 ; strain or isolate: TM ; changes: MDR ; endpoint: EC50 ; value: 2.5 µM
O=C(N[C@H]1c2ccccc2C[C@H]1O)[C@H](OCc1ccccc1F)[C@H](O)[C@@H](O)[C@@H](OCc1ccccc1F)C(=O)N[C@H]1c2ccccc2C[C@H]1O ; cell line: MT-4 ; read by: cytopathic effect / XTT ; endpoint: EC50 ; value: 0.04 µM
CC(=O)N1CCC(C(=O)N(CCCN2CCC(Cc3ccc(C(N)=O)cc3)CC2)c2ccc(C)c(Cl)c2)CC1 ; cell line: PBMC ; read by: p24 ; strain or isolate: IIIB X4 ; endpoint: EC50 ; value: >10 µM
CC(C)(c1ncc(-c2ccc(Cl)cc2)o1)N1CCN(C[C@@H](O)C[C@@H](Cc2nnc(-c3ccccc3)o2)C(=O)N[C@H]2c3ccccc3OC[C@H]2O)[C@H](C(=O)NCC(F)(F)F)C1 ; cell line: MT-4 ; read by: p24 ; strain or isolate: K-60 Clinical isolate ; changes: PR-L10I M46I I54V Q58E L63P I64V V77I V82F I84V L90M I93L ; endpoint: EC50 ; value: <0.008 µM
CC(C)(C)NC(=O)[C@@H]1C[C@@H]2CCCC[C@@H]2CN1C[C@@H](O)[C@H](Cc1ccccc1)NC(=O)[C@H](CC(N)=O)NC(=O)c1ccc2ccccc2n1 ; cell line: PBMC ; read by: p24 ; strain or isolate: MM ; changes: MDR ; endpoint: EC50 ; value: 0.37 µM
O=C(O)c1cc(O)cc(O)c1N=Nc1ccc(/C=C/c2ccc(N=Nc3c(O)cc(O)cc3C(=O)O)cc2S(=O)(=O)O)c(S(=O)(=O)O)c1 ; cell line: PBMC ; read by: p24 ; strain or isolate: CLADE C ; endpoint: EC50 ; value: 0.5 µg/mL

ECn is the concentration giving n% inhibition of infection, replication or growth.